Target: DRB1*15:01
Assay: competitive fluorescence polarization

B1: KRISNCYADYSVLYN (position 356) (peptide)
chain: KRISNCYADYSVLYN
- IC50: 623 nM

From US20220033460A1 (published 2022)
